This is an account of results in PubChem BioAssay AID2472 (National Center for Advancing Translational Sciences (NCATS), 2010).

This is a selection; strong and weak results do not stand in their true shares. Some salts and complexes are drawn in separate pieces, as the source files them; their charges need not balance. Calls of active or inactive are those of the source. Cut-off read from the data, not from the text of the source: active = activity change below about -30%; inactive = the rest, inconclusive results apart.
% is set by controls: 0 for no effect and ±100 for the full control effect.

The nature of the test: qHTS Assay for Inhibitors of Fructose-1,6-bisphosphate Aldolase from Giardia Lamblia: Coupling assay counterscreen. The note with it: coupling enzyme system counterscreen, AmpLite Red fluorescence; at 58.2 µM (top of the series). From the text: MLPCN Grant: MH085699-01 Assay Provider: Osnat Herzberg, University of Maryland NCGC Assay Overview: The objective of this project is to obtain compounds that inhibit Giardia lamblia growth. G. lamblia is a human pathogen which afflicts impoverished nations; it is the most common cause of outbreaks of diarrhea in the United States. During the course of our study of potential drug targets in Giardia, we have identified the Class II (Zn2+ functions in electrophilic catalysis) fructose-1,6-bisphosphate aldolase (FBPA) as an excellent candidate for drug targeting. FBPA is a key glycolytic pathway enzyme, essential for G. lamblia survival. The human FBPA belongs to the Class I aldolases, which have a different substrate binding site structure and a radically different catalytic mechanism (employing a lysine-Schiff base intermediate). Therefore, affinity-based or mechanism-based inhibitors of the Giardia FBPA are expected not to interfere with the catalytic function of the human FBPA. A glyceraldehyde-3-phosphate dehydrogenase/triose phosphate isomerase/NAD/arsenate coupled assay was adapted to the 1536-well HTP format for use in the primary screen. This was done by coupling it to a diaphorase/resazurin/resorufin reaction that can be monitored by fluorescence (excitation, 544 nm; emission, 590 nm). Compounds identified in this screen will be further evaluated by coupling the […]/triose phosphate isomerase/NADH assay to a phenazine methosulfate/tetranitroblue tetrazolium color reaction. False positives due to the dehydrogenases and diaphorase inhibition will be eliminated, and selectivity assay will triage inhibitors of mammalian triose phosphate isomerase and the Class I FBPA. G. lamblia FBPA inhibitors identified by the in vitro analyses will be examined for growth inhibition of Giardia trophozoites, and for cytotoxicity in human cells. This assay specifically addresses whether activity observed in the primary screen (AID 2451) is related to inhibition of the coupling assay used, as opposed to inhibition of aldolase. Actives in this assay are considered inconclusive for activity against aldolase.
NCGC Assay Protocol: Step,Parameter,Value,Description 1,Coupling enzyme reagent,2 uL,glyceraldehyde-3-phosphate 2,Compound,23 nL,3.68 nM-57.5 uM final concentration 3,Time,10 min,RT Incubation 4,Substrate/detection Reagent,2 uL,Substrate + enzyme coupling system + AmpLite Red kit 5,Time,20 min,RT Incubation 6,Detector,525 nm/598 nm (Fluorescence),ViewLux Fluorescence Read (Read 1) Notes: 1,Medium-binding black solid-bottom Kalypsys plates. FRD or Kalypsys dispenser. 2,Compound Library (10 mM ,1:5 dilution). Pin-transferred for a [final] range of 3.68 nM-57.5 uM. 3,RT incubation 4,FRD or Kalypsys dispenser, 2 uL of reaction mixture. Bottle kept at 4C and covered in foil to protect from light. 5,RT incubation 6,ViewLux Protocol 1194; Excitation filter wheel A (525/20 Pol; BODIPY TMR FP), Emission filter wheel B (598/25 S; BODIPY TMR FP S). Keywords: Fructose-bisphosphate aldolase, FBPA , Giardia lamblia , Giardia, HTS, Inhibitors
A general note: Quantitative high-throughput screening tests each substance at several concentrations.
For `CCOc1ccc(C)cc1CN(CCCl)CCCl`, the activity change, negative = inhibition is inactive: 4.28%.
Regarding `COc1ccc(NC2CCN(CCc3ccccc3)CC2)c(OC)c1`, the activity change, negative = inhibition is inactive: -6.31%.
For `CCOC(=O)N1CCC(Nc2ccc(F)cc2)CC1`, the activity change, negative = inhibition is inactive: 4.59%.
With `O=C(NCC1(N2CCCCC2)CCCCC1)c1ccc(F)cc1`, the activity change, negative = inhibition was inactive: 2.9%.
For the compound `Cc1ccc(OCC(C)C)c(CN(CCCl)CCCl)c1`, the activity change, negative = inhibition is inactive: -0.229%.
Consider `CCOC(=O)N1CCC(Nc2cccc(C)c2)CC1`, for which the activity change, negative = inhibition is inactive: 0.256%.
With `COc1cc(C(=O)NCC2(N(C)C)CCCCC2)ccc1OC(F)F` the figure was inactive: 1.7%; with `O=C(NCC1(N2CCCCC2)CCCCC1)c1ccc(=O)[nH]c1`, inactive: -0.161%.
For `COc1ccc(C(=O)NCC2(N3CCCCC3)CCCCC2)c(OC)c1OC` the value was inactive: -1.61%; for `CC(C)(C)OC(=O)N1CCC(N(C(=O)c2ccccc2)c2ccc(F)cc2)CC1`, inactive: 2.11%; for `COc1ccc(C(=O)NCC2(N3CCCCC3)CCCCC2)cc1`, inactive: -1.73%.
Turning to `CSc1ccccc1C(=O)NCC1(N2CCCCC2)CCCCC1`, the activity change, negative = inhibition was inactive: 1.33%.
Take `O=C(NCC1(N2CCOCC2)CCCCC1)c1cc2ccccc2o1`: the activity change, negative = inhibition is inactive: -3.23%.
As to `Cc1cc(C)cc(N(C(=O)c2ccccc2)C2CCN(C(=O)OC(C)(C)C)CC2)c1`, the activity change, negative = inhibition is inactive: 0.885%.
For `CCOC(=O)N1CCC(Nc2ccc(OC)cc2)CC1` the value was inactive: -2.18%; for `N#CC1(Nc2ccccc2)CCN(Cc2ccccc2)CC1`, inactive: 6.93%.
With `O=C(OC1CN2CCC1CC2)C1c2ccccc2Oc2ccccc21` (stereo unspecified) the figure was inactive: 2.64%; with `O=[N+]([O-])c1cc([N+](=O)[O-])c(OC2CCCCC2O)c([N+](=O)[O-])c1` (stereo unspecified), inactive: 14.3%.
With `CN(C)c1cccc(C(=O)NCC2(N3CCCCC3)CCCCC2)c1` the figure was inactive: -1.22%; with `COc1ccc(CN(CCCl)CCCl)cc1Cl`, inactive: 0.528%; with `CC(C)c1ccc(NC2CCN(C(=O)OC(C)(C)C)CC2)cc1`, inactive: -0.598%.
Take `COc1cc(OC)c(C(=O)NCC2(N(C)C)CCCCC2)cc1OC`: the activity change, negative = inhibition was inactive: 4.62%.
With `COc1ccc2c(c1O)-c1c(O)c(OC)cc3c1[C@H](C2)[N+](C)(C)CC3.O=[N+]([O-])c1cc([N+](=O)[O-])c([O-])c([N+](=O)[O-])c1[O-]` the figure was inactive: -16.6%; with `O=C(OC1CN2CCC1CC2)c1ccc([N+](=O)[O-])cc1` (stereo unspecified), inactive: -1.74%; with `CCCOc1ccc(C(=O)NCC2(N(C)C)CCCCC2)cc1OC`, inactive: -0.371%.
As to `O=C(NCC1(N2CCCCC2)CCCCC1)c1ccc(OC(F)F)cc1`, the activity change, negative = inhibition is inactive: 0.913%.
